Measurements reported in PubChem BioAssay AID624099 (ICCB-Longwood, 2012).
Shown is one part, drawn at random, of about 21,000 deposited reagents. 497 of them (2.4%) were called active. 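Higher z means weaker E2 silencing; only reporter increases were scored, and knock-downs that hurt cell survival may mask genuine repressor factors.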 A number with no mark means an inactive call.

Test: 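Host factors E2 relies on to silence an HPV18 LCR reporter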 (primary screen)
System: human C33A cervical carcinoma cells (HPV-negative) stably expressing BPV1 E2 and an HPV18 LCR luciferase reporter
Reagent: siRNA pool against human genes, 40 nM
Duration: 72 h
Detection: 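Per-well luciferase luminescence, z-scored on each plate against the plate mean and SD with control wells left out, then averaged across three replicate plates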
Scale: mean z-score and z-score: higher = stronger reporter signal, weaker E2 silencing
Rule for the call: 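Mean z ≥ 2 together with z ≥ 2 in two or more of the three replicates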

gene | mean z-score | z-score, replicate A | z-score, replicate B | z-score, replicate C
DOK6 | 1.09 | 1.17 | 1.22 | 0.89
MRPL40 | 0.74 | 0.7 | 0.55 | 0.98
UTP23 | -0.43 | -0.66 | -0.33 | -0.29
NNMT | 1.75 | 1.54 | 1.69 | 2.02
CDH22 | -1.37 | -1.44 | -1.42 | -1.26
WFS1 | 1.57 | 1.64 | 1.48 | 1.6
LSM14B | 1.12 | 1.08 | 1.26 | 1.03
ZNF181 | -0.42 | -0.37 | -0.24 | -0.65
HPDL | -1.5 | -1.64 | -1.41 | -1.45
RAB25 | 1.47 | 1.56 | 1.42 | 1.43
IRX6 | 0.16 | -0.01 | 0.36 | 0.12
SLC37A3 | 0.07 | 0 | 0.29 | -0.07
LINC00689 | -0.87 | -0.86 | -0.79 | -0.95
RBMX2 | 0.57 | 0.51 | 0.67 | 0.52
HOXD11 | -0.3 | -0.27 | -0.34 | -0.3
RPL31P43 | 0.04 | 0.38 | -0.11 | -0.16
CYP11B2 | -1.19 | -0.95 | -1.48 | -1.15
AKIRIN2 | -0.25 | -0.6 | -0.35 | 0.19
NRDE2 | -0.2 | -0.33 | -0.15 | -0.13
SLC7A6 | -1.23 | -1.29 | -1.15 | -1.26
LRRC58 | 0.27 | -0.04 | 0.18 | 0.68
LINC00923 | -0.34 | -0.36 | -0.83 | 0.16

Continued; the last 5 above are carried over.
gene | mean z-score | z-score, replicate A | z-score, replicate B | z-score, replicate C
AKIRIN2 | -0.25 | -0.6 | -0.35 | 0.19
NRDE2 | -0.2 | -0.33 | -0.15 | -0.13
SLC7A6 | -1.23 | -1.29 | -1.15 | -1.26
LRRC58 | 0.27 | -0.04 | 0.18 | 0.68
LINC00923 | -0.34 | -0.36 | -0.83 | 0.16
CCND3 | -0.02 | -0.37 | 0.09 | 0.23
NEXN | 0.01 | 0.2 | -0.34 | 0.16
MYO1F | -0.41 | -0.42 | -0.52 | -0.3
ZNF485 | 0.41 | 0.31 | 0.2 | 0.73
SERTM2 | 1.98 | 1.74 | 2 | 2.2
ATG16L1 | 0.16 | -0.03 | 0.22 | 0.29
CRB2 | -0.33 | -0.5 | -0.32 | -0.15
USP15 | -0.09 | -0.16 | -0.15 | 0.05
SIX6 | 1.13 | 1.46 | 1.08 | 0.86
CYP1A1 | -0.26 | -0.17 | -0.41 | -0.19
HAX1 | 0.08 | 0.06 | -0.09 | 0.26
SOAT2 | -1.35 | -1.4 | -1.15 | -1.49
CPT1B | -1.14 | -0.96 | -1.07 | -1.38
LOC253254 (retired record) | 1.31 | 1.48 | 0.96 | 1.51
SPAG16 | -0.26 | -0.46 | -0.28 | -0.05
SNF8 | 0.31 | -0.18 | 0.58 | 0.53
ZNF816 | 0.95 | 1.19 | 0.94 | 0.7
